Measured values from several laboratories, pooled; numbers as filed in NIAID ChemDB.

All rows: growth or infection tests

ECn is the concentration giving n% inhibition of infection, replication or growth. Neighbouring rows are from separate reports. a–b is a range or a potency band. Inhibition is in % at the dose shown (toxicity tests: loss of growth or viability). Zone: diameter of growth inhibition. Blank or dashed fields: not listed here. MIC50, MIC90 and the like: level of inhibition, or share of isolates inhibited.

compound | species | strain | changes | method | conditions | measure | tested at | result
Nc1nc(N)c2c(n1)NC(c1ccc(F)cc1)CC(c1ccc3c(c1)OCO3)=N2 | Mycobacterium szulgai | MNT1100 | - | MTT / broth dilution / absorbance | clinical isolate | MIC | - | 32 µg/mL
CO[C@H]1/C=C/O[C@@]2(C)Oc3c(C)c(O)c4c(O)c(c5c(c4c3C2=O)NC2(CCN(CC(C)C)CC2)N=5)=NC(=O)/C(C)=C\C=C\[C@H](C)[C@H](O)[C@@H](C)[C@@H](O)[C@@H](C)[C@H](OC(C)=O)[C@@H]1C | Mycobacterium avium intracellulare | 20 isolates | - | - | - | MIC90 | - | 1 µg/mL
CC[C@@H](C(=O)[C@@H](C)[C@@H](O)[C@H](C)[C@@H]1O[C@@H]([C@@H](CC)C(=O)O)CC[C@@H]1C)[C@H]1O[C@@]2(C=C[C@@H](O)[C@@]3(CC[C@@](C)([C@H]4CC[C@](O)(CC)[C@H](C)O4)O3)O2)[C@H](C)C[C@@H]1C | Mycobacterium aurum | - | C330 deletion | resazurin | - | MIC | - | 0.08 µg/mL
Cc1cc(-c2cc3c(cc2F)c(=O)c(C(=O)O)cn3C2CC2)cc(C)n1 | Mycoplasma hominis | 37 strains | - | - | - | MIC90 | - | 0.004 µg/mL
C[C@H]1COC2(CCN(c3nc(=O)c4cc(C(F)(F)F)cc(C(=O)O)c4s3)CC2)O1 | Mycobacterium bolletii | 1999-0888 | - | resazurin | - | MIC99 | - | >100 µg/mL
CO[C@@H]1C[C@@H](C[C@H]2CC[C@H](C)[C@H]([C@@H](C)C(=O)O)O2)O[C@]2(O[C@](C)([C@H]3CC[C@@](C)([C@@H]4O[C@@H]([C@H]5O[C@@](O)(CO)[C@H](C)C[C@@H]5C)C[C@@H]4C)O3)C[C@H]2C)[C@@H]1C | Mycobacterium aurum | - | C330 deletion | resazurin | - | MIC | - | 0.32 µg/mL
N/C(=N\N=C\c1ccccc1Sc1ccc(Cl)cc1)c1ccccn1 | Mycobacterium fortuitum | - | - | - | - | inhibition | 100 µM | 3.7%
COc1cc(Cc2cnc(N)nc2N)cc(OC)c1OCCCNc1ccc(S(=O)(=O)c2ccc(N)cc2)cc1 | Mycobacterium ulcerans | Isolate 94-886 | - | - | - | MBC | - | 8 µg/mL
O=c1cc(O)c2ccccc2o1 | Mycobacterium bovis | BCG | - | broth dilution | - | MIC | - | 125 µg/mL
CC1CN(c2nc3c(cc2F)c(=O)c(C(=O)O)cn3-c2ccc(F)cc2F)CCN1 | Mycobacterium fortuitum | ATCC 6841 | - | - | - | MIC | - | 0.13 µg/mL
CN[C@@H]1[C@@H](O[C@H]2O[C@H](CO)[C@@H](N)[C@H](O)[C@H]2O)OC2C[C@@H](N)[C@@H](O[C@H]3[C@H](OC4O[C@H](CN)[C@@H](O)[C@H]4O)[C@@H](O)[C@H](N)C[C@@H]3N)OC2[C@@H]1O | Mycobacterium abscessus | L948 | - | broth dilution | - | MIC | - | 1–2 µg/mL
CCCc1c2c([nH]c(=O)c1C)C(=O)c1[nH]c(=O)c(C)c(CCC)c1C2=O | Mycobacterium marinum | ATCC 927 | - | resazurin / fluorescence | - | MIC90 | - | >7.5 µg/mL
CC[C@@H](CO)NCCN[C@@H](CC)CO | Mycobacterium avium complex | 2212 | - | - | - | MBC | - | 30 µg/mL
Cc1nn(-c2ccccc2)c2c1C(c1cn(-c3ccccc3)nc1-c1ccc(F)cc1)C1=C(NC(C)(c3cc(O)cc(O)c3)NC1=O)O2 | Mycobacterium phlei | NCIM 2240 | - | agar diffusion / agar | - | zone | 0.5 mg/mL | 1.5 mm
Nc1nc(N)c2c(n1)NC(c1ccc3c(c1)OCO3)CC(c1ccccc1)=N2 | Mycobacterium scrofulaceum | MNT1193 | - | MTT / broth dilution / absorbance | clinical isolate | MIC | - | >32 µg/mL
CC1CN(c2c(F)cc3c(=O)c(C(=O)O)cn(-c4ccc(F)cc4F)c3c2F)CC(C)N1 | Mycobacterium fortuitum | ATCC 6841 | - | - | - | MIC | - | 0.5 µg/mL
Cc1nn(-c2ccccc2)c2c1C(c1cn(-c3ccccc3)nc1-c1ccc(Cl)cc1)C1=C(NC(C)(c3cc(O)ccc3Cl)NC1=O)O2 | Mycobacterium phlei | NCIM 2240 | - | agar diffusion / agar | - | zone | 0.1 mg/mL | 2 mm
CN[C@@H]1[C@@H](O[C@H]2O[C@H](CO)[C@@H](N)[C@H](O)[C@H]2O)OC2C[C@@H](N)[C@@H](O[C@H]3[C@H](O)[C@@H](OCCO)[C@H](N)C[C@@H]3N)OC2[C@@H]1O | Mycobacterium abscessus | L948 | - | broth dilution | - | MIC | - | 2 µg/mL
CNCC1CCN(c2c(F)cc3c(=O)c(C(=O)O)cn(C4CC4)c3c2OC)C1 | Mycobacterium fortuitum | ATCC 6841 | - | - | - | MIC | - | ≤0.03 µg/mL
CC(=O)N1C(=O)C2(C3=C(CN2C)C(=O)c2ccccc2C3=O)c2ccccc21 | Mycobacterium luteus | - | - | agar diffusion | - | zone | 50 µg/mL | 22 mm
Nc1nc(N)c2c(n1)NC(c1ccc(C(F)(F)F)cc1)CC(c1ccc3c(c1)OCO3)=N2 | Mycobacterium szulgai | MNT1100 | - | MTT / broth dilution / absorbance | clinical isolate | MIC | - | 32 µg/mL
CC[C@H]1OC(=O)[C@H](C)[C@@H](O[C@H]2C[C@@](C)(OC)[C@@H](O)[C@H](C)O2)[C@H](C)[C@@H](O[C@@H]2O[C@H](C)C[C@H](N(C)C)[C@H]2O)[C@](C)(OC)C[C@@H](C)C(=O)[C@H](C)[C@@H](O)[C@]1(C)O | Mycobacterium avium | RG4 | - | - | - | MIC | - | 0.12 µg/mL
NC1CCN(c2c(F)cc3c(=O)c(C(=O)O)cn(C4CC4)c3c2Cl)C1 | Mycobacterium fortuitum | ATCC 6841 | - | - | - | MIC | - | ≤0.03 µg/mL
COC[C@H]1OC(=O)c2coc3c2[C@@]1(C)C1=C(C3=O)C2CCC(=O)[C@@]2(C)C[C@H]1OC(C)=O | Mycobacterium bovis | BCG | - | - | - | EC50 | - | >0.5 µM
Cc1nn(-c2ccccc2)c2c1C(c1cn(-c3ccccc3)nc1-c1ccc(F)cc1)C1=C(NC(C)(c3cc(O)c(I)cc3Cl)NC1=O)O2 | Mycobacterium phlei | NCIM 2240 | - | agar diffusion / agar | - | zone | 1 mg/mL | 8.6 mm
C[C@H]1NCc2cc(-c3ccc4c(=O)c(C(=O)O)cn(C5CC5)c4c3OC(F)F)ccc21 | Mycobacterium smegmatis | 6 strains | - | - | - | Median MIC | - | 0.13 µg/mL
CN[C@@H]1[C@@H](O)[C@@H](O[C@@H]2[C@@H](O)[C@H](O[C@H]3O[C@H](CN)CC[C@H]3N)[C@@H](N)C[C@H]2N)OC[C@]1(C)O | Mycobacterium abscessus | L948 | - | broth dilution | - | MIC | - | 2–4 µg/mL
C#CCCCCCC | Mycobacterium bovis BCG | 1173P2 | - | resazurin | 48 h | MIC | - | 125 µg/mL
COc1nc2ccc(Br)cc2cc1[C@@H](c1ccccc1)[C@@](O)(CCN(C)C)c1cccc2ccccc12 | Mycobacterium abscessus | 103 | - | resazurin | - | MIC90 | - | 1 µM
CN1C(=O)C2(C3=C(C(=O)c4ccccc4C3=O)C3CCCN32)c2ccccc21 | Mycobacterium luteus | - | - | agar diffusion | - | zone | 50 µg/mL | 9 mm
NC[C@H]1O[C@H](O[C@H]2[C@H](O)[C@@H](O[C@H]3O[C@H](CO)[C@@H](O)[C@H](N)[C@H]3O)[C@H](N)C[C@@H]2N)[C@H](O)[C@@H](O)[C@@H]1O | Mycobacterium avium intracellulare | N-499 (HIV-) | - | - | - | MIC | - | 1 µg/mL
O=C(O)c1cn(C2CC2)c2c(Cl)c(N3C[C@@H]4CCCN[C@@H]4C3)c(F)cc2c1=O | Mycobacterium avium paratuberculosis | K-10(PYUB180) | - | - | - | MIC | - | 0.015 µg/mL
C#CCN1C(=O)C2(C3=C(C(=O)c4ccccc4C3=O)C3CCCN32)c2ccccc21 | Mycobacterium luteus | - | - | agar diffusion | - | zone | 50 µg/mL | 9 mm
CC1CN(c2c(F)cc3c(=O)c(C(=O)O)cn(C4CC4)c3c2Br)CCN1 | Mycobacterium bovis | BCG-CX2 (A90V D94N) | - | - | - | MIC | - | 2.1 µg/mL
C#CC(C)(CC)OC(C)=O | Mycobacterium bovis BCG | 1173P2 | - | resazurin | 48 h | MIC | - | 125 µg/mL
CN[C@@H]1[C@@H](O[C@H]2O[C@H](CO)[C@@H](N)[C@H](O)[C@H]2O)OC2C[C@@H](N)[C@@H](O[C@H]3[C@H](OCC(O)CN)[C@@H](O)[C@H](N)C[C@@H]3N)OC2[C@@H]1O | Mycobacterium abscessus | L948 | - | broth dilution | - | MIC | - | 0.5–1 µg/mL
Nc1nc(N)c2c(n1)NC(c1ccccc1)CC(c1ccc3c(c1)OCO3)=N2 | Mycobacterium szulgai | MNT1100 | - | MTT / broth dilution / absorbance | clinical isolate | MIC | - | 32 µg/mL
C#CC(=O)OC | Mycobacterium bovis BCG | 1173P2 | - | resazurin | 24 h | MIC | - | 3.87 µg/mL
CN[C@@H]1[C@@H](O[C@H]2O[C@H](CO)[C@@H](N)[C@H](O)[C@H]2O)OC2C[C@@H](N)[C@@H](O[C@H]3[C@H](OC4O[C@H](CO)[C@@H](OC5O[C@@H](CN)[C@@H](O)[C@H](O)[C@H]5N)[C@H]4O)[C@@H](O)[C@H](N)C[C@@H]3N)OC2[C@@H]1O | Mycobacterium abscessus | L948 | - | broth dilution | - | MIC | - | 2 µg/mL
O=C(O)C#Cc1ccccc1 | Mycobacterium bovis BCG | 1173P2 | - | resazurin | 48 h | MIC | - | 125 µg/mL
CCN1CCN(c2cc3c(cc2F)c(=O)c(C(=O)O)cn3C2CC2)CC1 | Mycobacterium bovis | BCG-KD1295 (WILD TYPE) | - | - | - | MIC | - | 0.11 µg/mL
CNCC1CCN(c2cc3c(cc2F)c(=O)c(C(=O)O)cn3C(C)(C)C)C1 | Mycobacterium fortuitum | ATCC 6841 | - | - | - | MIC | - | 0.13 µg/mL
Nc1ccc(S(=O)(=O)c2ccc(N)cc2)cc1 | Mycobacterium ulcerans | ATCC 35840 | - | - | - | MIC | - | 1 µg/mL
CCn1cc(C(=O)O)c(=O)c2cc(F)c(-n3cccc3)cc21 | Mycobacterium avium | - | - | - | pH 6.8 | inhibition | 3 µg/mL | 60%
COc1ccc(C2CC(c3ccc4c(c3)OCO4)=Nc3c(N)nc(SC)nc3N2)cc1 | Mycobacterium chelonae | MNT1407 | - | MTT / broth dilution / absorbance | clinical isolate | MIC | - | >32 µg/mL
NCC[C@H](O)C(=O)N[C@@H]1C[C@H](N)[C@@H](O[C@H]2O[C@H](CN)[C@@H](O)[C@H](O)[C@H]2O)[C@H](O)[C@H]1O[C@H]1O[C@H](CO)[C@@H](O)[C@H](N)[C@H]1O | Mycobacterium avium paratuberculosis | K-10(PYUB180) | - | - | - | MIC | - | 2 µg/mL
Cc1nn(-c2ccccc2)c2c1C(c1cn(-c3ccccc3)nc1-c1ccc(Cl)cc1)C1=C(NC(C)(c3cc(O)cc(O)c3)NC1=O)O2 | Mycobacterium phlei | NCIM 2240 | - | agar diffusion / agar | - | zone | 0.1 mg/mL | 2.5 mm
CN1CC2=C(C(=O)c3ccccc3C2=O)C12C(=O)Nc1ccc(Cl)cc12 | Mycobacterium luteus | - | - | agar diffusion | - | zone | 50 µg/mL | 12 mm
O=Cc1cccc2ccccc12 | Mycobacterium fortuitum | - | - | - | - | inhibition | 1000 µM | 9.2%
O=C(OC(=O)c1ccccc1)c1ccccc1 | Mycobacterium bovis BCG | 1173P2 | - | resazurin | 48 h | MIC | - | 500 µg/mL
CC[C@@H](CO)NCCN[C@@H](CC)CO | Mycobacterium avium | 101 | - | - | - | MIC | - | 8 µg/mL
O=C(O)c1cc(C(F)(F)F)cc2c(=O)nc(N3CCN(CC4CCCCC4)CC3)sc12 | Mycobacterium massiliense | 2005-0484 | - | resazurin | - | MIC99 | - | >100 µg/mL
CC(C)(C)c1ccc(C=O)cc1 | Mycobacterium fortuitum | - | - | - | - | inhibition | 1000 µM | 9.2%
CNCC1CCN(c2nc3c(cc2F)c(=O)c(C(=O)O)cn3-c2ccc(F)cc2F)C1 | Mycobacterium fortuitum | ATCC 6841 | - | - | - | MIC | - | 0.5 µg/mL
CC[C@@H](CO)NCCN[C@@H](CC)CO | Mycobacterium avium intracellulare | N-475 (HIV-) | - | - | - | MIC | - | 1 µg/mL
CN[C@@H]1[C@@H](O[C@H]2O[C@H](CO)[C@@H](N)[C@H](O)[C@H]2O)OC2C[C@@H](N)[C@@H](O[C@H]3[C@H](OC4O[C@H](CO)[C@@H](O)[C@H]4O)[C@@H](O)[C@H](N)C[C@@H]3N)OC2[C@@H]1O | Mycobacterium abscessus | L948 | - | broth dilution | - | MIC | - | 16 µg/mL
CC[C@@H](CO)NCCN[C@@H](CC)CO | Mycobacterium avium paratuberculosis | K-10(PYUB180) | - | - | - | MIC | - | 10 µg/mL
CCC(C)(C)c1ccc(/C=N/N=C(\N)c2ccccn2)cc1 | Mycobacterium fortuitum | - | - | - | - | inhibition | 1000 µM | 6.2%
CC1CN(c2c(F)c(N)c3c(=O)c(C(=O)O)cn(C4CC4)c3c2F)CCN1C | Mycobacterium avium | RG4 | - | - | - | MIC | - | 0.25 µg/mL
COc1c(N2CC(C)NC(C)C2)c(F)cc2c(=O)c(C(=O)O)cn(-c3ccc(F)cc3F)c12 | Mycobacterium fortuitum | ATCC 6841 | - | - | - | MIC | - | 16 µg/mL
Nc1nc(N)c2c(n1)NC(c1ccc(Cl)cc1)CC(c1ccc3c(c1)OCO3)=N2 | Mycobacterium scrofulaceum | MNT1193 | - | MTT / broth dilution / absorbance | clinical isolate | MIC | - | 32 µg/mL
N/C(=N\N=C\c1ccccc1OCc1ccccc1)c1ccccn1 | Mycobacterium fortuitum | - | - | - | - | inhibition | 100 µM | 5.1%
CCN1CCN(c2c(F)cc3c(=O)c(C(=O)O)cn(C4CC4)c3c2OC)CC1 | Mycobacterium bovis | BCG-CX1 (D94N) | - | - | - | MIC | - | 1.2 µg/mL
CCN1CCN(c2c(F)cc3c(=O)c(C(=O)O)cn(C4CC4)c3c2OC)CC1 | Mycobacterium fortuitum | ATCC 6841 | - | - | - | MIC | - | ≤0.03 µg/mL